Compound potency records, mixed from different reports. Data source: NIAID ChemDB in PubChem.

Common to all: growth or infection tests; organism: Rhinovirus; read by: cytopathic effect; read-out: EC50

Neighbouring rows are from separate reports.

smiles | strain or isolate | cell line | value
CSc1nsc(-c2ccc(OCc3ccccc3)cc2)c1C#N | Serotype 41 (group B) | HELA-OHIO | 32 µM
COCc1cc(CCCOc2c(Cl)cc(-c3noc(C)n3)cc2Cl)on1 | Serotype 14 | HeLa | 0.036 µg/mL
CSc1nsc(-c2ccccc2)c1C#N | Serotype 59 (group B) | HELA-OHIO | >80 µM
CSc1nsc(-c2ccc(OCCCc3ccccc3)cc2)c1C#N | Serotype 41 (group B) | HELA-OHIO | >20 µM
Cc1nc(-c2cc(C)c(OCCCc3cc(C4CC4)no3)c(C)c2)no1 | Serotype 50 | HeLa | 0.042 µg/mL
CSc1nsc(-c2ccc(OS(=O)(=O)c3ccc(C)cc3)cc2)c1C#N | Serotype 2 (group B) | HELA-OHIO | 0.03 µM
CSc1nsc(-c2ccc(OCCc3ccccc3)cc2)c1C#N | Serotype 70 (group A) | HELA-OHIO | >20 µM
Cc1c(-c2ccccc2)n(-c2ccc(F)cc2)c2ccc(C(C)C)cc2c1=O | 39/209 | HELA-OHIO | 0.018 µg/mL
CSc1nsc(-c2ccc(O)cc2)c1C#N | Serotype 51 (group B) | HELA-OHIO | >10 µM
Cc1c(-c2ccccc2)n(-c2cccc(F)c2)c2ccc(C(C)C)cc2c1=O | 33/1200 | HELA-OHIO | 0.17 µg/mL
CSc1nsc(-c2ccc(OCCOc3ccc(C#N)cc3)cc2)c1C#N | Serotype 45 (group A) | HELA-OHIO | >2 µM
CCn1c(-c2cccc(F)c2)c(C)c(=O)c2cc(C(C)C)ccc21 | TYPE 2/ HGP | HELA-OHIO | 0.65 µg/mL
Cc1nc(-c2cc(C)c(OCCCc3cc(C(F)(F)F)no3)c(C)c2)no1 | Serotype 30 | HeLa | 0.065 µg/mL
CCOC(=O)c1ccc(OCCCOc2ccc(-c3snc(SC)c3C#N)cc2)cc1 | Serotype 39 (group B) | HELA-OHIO | 0.5 µM
CCn1c2c(c(=O)c3cc(C(C)C)ccc31)Cc1ccccc1-2 | 21/47 | HELA-OHIO | 0.2 µg/mL

Repeating the first 2 entries:

| smiles | strain or isolate | cell line | value |
|---|---|---|---|
| CSc1nsc(-c2ccc(OCc3ccccc3)cc2)c1C#N | Serotype 41 (group B) | HELA-OHIO | 32 µM |
| COCc1cc(CCCOc2c(Cl)cc(-c3noc(C)n3)cc2Cl)on1 | Serotype 14 | HeLa | 0.036 µg/mL |

ECn is the concentration giving n% inhibition of infection, replication or growth.